Compound potency records, mixed from different reports. Data source: NIAID ChemDB in PubChem.

Common to all: growth or infection tests; organism: Herpes simplex virus 2; cells: VERO; read-out: EC50

ECn is the concentration giving n% inhibition of infection, replication or growth.

c1ccc(-c2cc3ccccn3c2)nc1 ; strain: 186 ; method: plaque count ; value: >100 µM
Cc1cn(C2C[C@@H](CO)[C@@H](CO)S2)c(=O)[nH]c1=O ; method: cytopathic effect ; value: >100 µg/mL
Nc1nc(=O)n([C@@H]2O[C@H](CO)[C@@H](O)[C@@H]2F)cc1I ; strain: G ; method: plaque count ; value: 0.03 µM
Nc1nc2c(ncn2COCCO)c(=O)[nH]1 ; strain: 35D ; method: plaque count ; value: 5.6 µM
O=C(O)c1c([N+](=O)[O-])c(-c2ccccc2)n(COCCO)c1-c1ccccc1 ; method: plaque count ; value: >300 µM
O=c1ccn([C@@H]2O[C@H](CO)[C@@H](O)[C@@H]2F)c(=O)[nH]1 ; strain: G-FAC-C1 ; method: plaque count ; value: 140 µM
Nc1nc2c(ncn2[C@@H]2C[C@H](CO)[C@H]2CO)c(=O)[nH]1 ; method: cytopathic effect ; value: 0.7 µg/mL
Nc1ncnc2c1c(Br)cn2COCCO ; method: cytopathic effect ; value: 100 µM
FC(F)(F)Oc1ccc(-c2cc3ccccn3c2)cc1 ; strain: 186 ; method: plaque count ; value: >100 µM
CC(=O)OCCOCn1c(-c2ccccc2)c(C#N)c([N+](=O)[O-])c1-c1ccccc1 ; method: plaque count ; value: >300 µM
Nc1ncnc2c1ncn2N1CC[C@H](CO)[C@H]1CO ; method: cytopathic effect ; value: >100 µg/mL
Nc1nc2c(ncn2COCCOC(CO)CO)c(=O)[nH]1 ; strain: G ; method: plaque count ; value: >100 µM
Nc1nc2c(ncn2COC(CO)CO)c(=O)[nH]1 ; strain: Lovelace MS ; method: plaque count ; value: 0.4 µM
N#Cc1c([N+](=O)[O-])c(-c2ccccc2)n(COCCO)c1-c1ccccc1 ; method: plaque count ; value: >300 µM
Cc1cn([C@@H]2O[C@H](CO)[C@@H](O)[C@@H]2F)c(=O)[nH]c1=O ; strain: HG-52 ; method: plaque count ; value: 0.09 µM
COC(=O)/C=C1/[C@@H](O[Si](C)(C)C(C)(C)C)[C@H](n2cc(C)c(=O)[nH]c2=O)O[C@@H]1CO[Si](C)(C)C(C)(C)C ; method: plaque count ; value: >35 µM
O=C(C[C@H]1C(O)O[C@@H]2COC(=O)c3cc(Oc4c(C(=O)O)cc(O)c(O)c4O)c(O)c(O)c3C3=C(O)C(O)=C(O)C[C@H]3C(=O)O[C@H]2[C@@H]1OC(=O)c1cc(O)c(O)c(O)c1)c1cc(O)c(O)c(O)c1 ; method: XTT ; value: >200 µg/mL
Cc1cn(C2OC[C@H](CO)[C@H]2CO)c(=O)[nH]c1=O ; method: cytopathic effect ; value: >100 µg/mL
Brc1ccc2cc(-c3ccccc3)cn2c1 ; strain: 186 ; method: plaque count ; value: >100 µM
CC(C)(C)[Si](C)(C)OC[C@H]1O[C@@H](n2ccc(=O)[nH]c2=O)[C@H](O[Si](C)(C)C(C)(C)C)[C@@]12O[C@H]2C(=O)NO ; method: plaque count ; value: 3 µM
O=c1[nH]c(=O)n([C@@H]2O[C@H](CO)[C@@H](O)[C@@H]2F)cc1I ; strain: G-FIAU-C1 ; method: plaque count ; value: 15 µM
CCOP(=O)(OCC)C1=NOC(n2cc(C)c(=O)[nH]c2=O)C1 ; method: plaque count ; value: >400 µM
Clc1ccc(-c2cc3ccccn3c2)c(Cl)c1 ; strain: 186 ; method: plaque count ; value: >100 µM
Nc1nc2c(ncn2C[C@]2(CO)C[C@H]2CO)c(=O)[nH]1 ; method: cytopathic effect ; value: 1.5 µg/mL
CCOC(=O)c1c([N+](=O)[O-])c(-c2ccccc2)n(COCCOC(C)=O)c1-c1ccccc1 ; method: plaque count ; value: >96 µM
Nc1nc2c(ncn2N2C[C@H](CO)[C@H]2CO)c(=O)[nH]1 ; method: cytopathic effect ; value: 6.32 µg/mL
c1ccn2cc(-c3ccsc3)cc2c1 ; strain: 186 ; method: plaque count ; value: >100 µM
COC(=O)CC(=O)O[C@@H]1C[C@@H]2[C@@H](OC(C)=O)C[C@H]3C(C)(C)CCC[C@]3(C)[C@]23CCC1(C)C3 ; value: 15 µg/mL
COc1ccc2nc3n[nH]c(C)c3c(Cl)c2c1 ; method: plaque count ; value: 1.8 µg/mL
c1ccn2cc(-c3cncs3)cc2c1 ; strain: 186 ; method: plaque count ; value: >100 µM
Nc1ccn([C@H]2O[C@@H](CO)[C@H](O)[C@H]2F)c(=O)n1 ; strain: G-FAC-C1 ; method: plaque count ; value: 7.3 µM
CC(=O)O[C@H]1O[C@@H](SC2=N/C(=C\c3ccccc3)C(=O)N2c2ccccc2)[C@H](OC(C)=O)[C@@H](OC(C)=O)[C@@H]1OC(C)=O ; strain: MS ; method: ELISA ; value: 100 µM
Nc1ccn(C2OC[C@H](CO)[C@H]2CO)c(=O)n1 ; method: cytopathic effect ; value: >100 µg/mL
Fc1ccccc1-c1cc2ccccn2c1 ; strain: 186 ; method: plaque count ; value: 50 µM
CC(C)(C)[Si](C)(C)OC[C@H]1O[C@@H](n2ccc(=O)[nH]c2=O)[C@H](O[Si](C)(C)C(C)(C)C)[C@@]12O[C@H]2C(N)=O ; method: plaque count ; value: >8 µM
Nc1ncnc2c1ncn2C1SC[C@H](CO)[C@H]1CO ; method: cytopathic effect ; value: >100 µg/mL
Cc1cn([C@@H]2O[C@H](CO)[C@@H](O)[C@@H]2F)c(=O)[nH]c1=O ; strain: Lovelace MS ; method: plaque count ; value: 0.5 µM
CC(=O)O[C@H]1C[C@H]2C(C)(C)CCC[C@]2(C)[C@@]23CCC(C)(C2)[C@@H](O)C[C@H]13 ; value: 25 µg/mL
COC(=O)[C@H](C)NP(=O)(OCC1C/C1=C/n1cnc2c(N)ncnc21)Oc1ccccc1 ; method: plaque count ; value: >1 µM
CC1(C)CCC[C@@]2(C)[C@H]1CC[C@H]1C[C@@H](O)C3(C)CC[C@]12C3 ; value: 7.5 µg/mL
CCOP(=O)(OCC)C1=NOC(Cn2cc(F)c(=O)[nH]c2=O)C1 ; method: plaque count ; value: >400 µM
Nc1ncnc2c1ncn2N1C[C@H](CO)[C@H]1CO ; method: cytopathic effect ; value: 34.2 µg/mL

4 of the rows above, restated:

structure	strain	method	value
CC1(C)CCC[C@@]2(C)[C@H]1CC[C@H]1C[C@@H](O)C3(C)CC[C@]12C3			7.5 µg/mL
Nc1nc2c(ncn2COC(CO)CO)c(=O)[nH]1	Lovelace MS	plaque count	0.4 µM
Cc1cn(C2C[C@@H](CO)[C@@H](CO)S2)c(=O)[nH]c1=O		cytopathic effect	>100 µg/mL
O=c1ccn([C@@H]2O[C@H](CO)[C@@H](O)[C@@H]2F)c(=O)[nH]1	G-FAC-C1	plaque count	140 µM

Rows are shuffled and stem from different studies. An empty or dashed field is not shown.